Measurements: publication PMC10436556
At least one result comes from cells or an extract, where the contact may be indirect. For some assays here: Negatives hold for the conditions tested. For some assays here: Tags and fusion partners may be left off the protein sequences shown. The exact form of at least one protein or probe is not confirmed. For some assays here: At least one verdict rests on a figure or table, not on a statement of the authors. For some assays here: Weaker means in comparison with the reference protein, sequence or condition of that experiment.

Assays:
Assay in all cases: EMSA
[1] = tested on: OGG1 (recombinant, ProSpec ENZ-253) + IRF3 in NE of RSV-infected hSAECs; details: rOGG1 added to NE, WCL/NE: 10 mM Tris-HCl pH 7.5, 1 mM EDTA, 50 mM NaCl, 2 mM DTT, 5% glycerol, 0.5% NP-40, BSA, poly(I:C), RT 20 min, His-IRF3: 10 mM Tris pH 7.5, 50 mM KCl, 1 mM DTT, commercial protein, letters put together from the description
[2] = tested on: NF-kB1/p50 in NE of RSV-infected hSAECs + RelA/p65 in NE of RSV-infected hSAECs; details: WCL/NE: 10 mM Tris-HCl pH 7.5, 1 mM EDTA, 50 mM NaCl, 2 mM DTT, 5% glycerol, 0.5% NP-40, BSA, poly(I:C), RT 20 min, His-IRF3: 10 mM Tris pH 7.5, 50 mM KCl, 1 mM DTT, protein in an extract
[3] = target: OGG1 in NE of RSV-infected hSAECs (Homo sapiens (hSAEC)) (UniProt O15527); details: WCL/NE: 10 mM Tris-HCl pH 7.5, 1 mM EDTA, 50 mM NaCl, 2 mM DTT, 5% glycerol, 0.5% NP-40, BSA, poly(I:C), RT 20 min, His-IRF3: 10 mM Tris pH 7.5, 50 mM KCl, 1 mM DTT, protein in an extract
[4] = target: T1, NF-kB1/p50 in NE of RSV-infected hSAECs (Homo sapiens (hSAEC)) (UniProt P19838); details: WCL/NE: 10 mM Tris-HCl pH 7.5, 1 mM EDTA, 50 mM NaCl, 2 mM DTT, 5% glycerol, 0.5% NP-40, BSA, poly(I:C), RT 20 min, His-IRF3: 10 mM Tris pH 7.5, 50 mM KCl, 1 mM DTT, protein in an extract
T1 sequence (looked up, limits assumed): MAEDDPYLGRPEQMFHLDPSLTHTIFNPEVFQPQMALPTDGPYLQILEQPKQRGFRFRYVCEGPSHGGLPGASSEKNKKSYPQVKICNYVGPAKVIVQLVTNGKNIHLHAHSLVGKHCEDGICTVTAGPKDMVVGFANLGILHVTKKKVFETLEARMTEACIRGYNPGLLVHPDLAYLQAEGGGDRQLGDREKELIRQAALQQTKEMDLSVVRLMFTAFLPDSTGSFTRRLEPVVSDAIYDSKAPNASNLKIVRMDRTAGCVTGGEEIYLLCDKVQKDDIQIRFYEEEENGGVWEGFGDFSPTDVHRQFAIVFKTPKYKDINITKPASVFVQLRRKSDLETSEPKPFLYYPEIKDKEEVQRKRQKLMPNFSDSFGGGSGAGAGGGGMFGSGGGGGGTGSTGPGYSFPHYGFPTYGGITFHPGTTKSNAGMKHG

[5] = target: T2, IRF3 in NE of RSV-infected hSAECs (Homo sapiens (hSAEC)) (UniProt Q14653); details: WCL/NE: 10 mM Tris-HCl pH 7.5, 1 mM EDTA, 50 mM NaCl, 2 mM DTT, 5% glycerol, 0.5% NP-40, BSA, poly(I:C), RT 20 min, His-IRF3: 10 mM Tris pH 7.5, 50 mM KCl, 1 mM DTT, protein in an extract
T2 sequence (looked up, limits assumed): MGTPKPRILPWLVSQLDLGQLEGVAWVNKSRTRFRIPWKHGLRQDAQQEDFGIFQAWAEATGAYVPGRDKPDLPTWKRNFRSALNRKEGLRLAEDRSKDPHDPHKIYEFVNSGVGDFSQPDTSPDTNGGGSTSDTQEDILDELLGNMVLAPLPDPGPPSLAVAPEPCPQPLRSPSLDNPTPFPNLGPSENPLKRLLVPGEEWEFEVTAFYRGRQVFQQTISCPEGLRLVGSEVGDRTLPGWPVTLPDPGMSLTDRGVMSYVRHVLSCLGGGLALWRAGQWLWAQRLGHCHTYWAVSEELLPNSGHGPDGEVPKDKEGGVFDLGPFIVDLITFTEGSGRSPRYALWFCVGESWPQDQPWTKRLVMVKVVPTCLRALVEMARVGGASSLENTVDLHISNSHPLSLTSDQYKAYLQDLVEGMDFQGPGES

“CTGTGTTTTCACTTTTCCTACATCAGCTGGGACTGCCCTTCTGTCAGGGATAA (double strand) [Pr2]”: binds ([1]; higher shift, 8-oxoG at top position 48); binds ([2]; p50-p65 heterodimer, 8-oxoG at top position 48, letters put together from the description); binds more weakly ([2]; with rOGG1, drastic diminution, 8-oxoG at top position 48, letters put together from the description). “CTGTGTTTTCACTTTTCCTACATCAGCTGGGACTGCCCTTCTGTCAGGGATAA (double strand) [Pr2]”: binds ([3]; NE of RSV-infected hSAECs, early time points, 8-oxoG at top position 48, letters put together from the description); binds more weakly ([3]; late infection, O-GlcNAcylated OGG1 unable to bind, 8-oxoG at top position 48, letters put together from the description); binds ([4]; RelA-depleted NE, p50-p50, 8-oxoG at top position 48, letters put together from the description). “CTGTGTTTTCACTTTTCCTACATCAGCTGGGACTGCCCTTCTGTCAGGGATAA (double strand) [Pr2]”: binds ([4]; with rOGG1, p50-p50 complex, 8-oxoG at top position 48, letters put together from the description); binds more weakly ([5]; with rOGG1, IRF-DNA complex decreases with OGG1 concentration, 8-oxoG at top position 48, letters put together from the description); binds ([5]; without OGG1, 8-oxoG at top position 48, letters put together from the description).
“CTGTGTTTTCACTTTTCCTACATCAGCTGGGACTGCCCTTCTGTCAGGGATAA (double strand) [Pr1]”: binds ([1]; additional IRF-OGG1 complexes, 8-oxoG at top position 29); binds ([4]; p50-p50, 8-oxoG at top position 29, letters put together from the description); binds ([5]; similar to Pr0, 8-oxoG at top position 29, letters put together from the description). “CTGTGTTTTCACTTTTCCTACATCAGCTGGGACTGCCCTTCTGTCAGGGATAA (double strand) [Pr1]”: binds more weakly ([5]; with rOGG1, IRF-DNA complex decreases with OGG1 concentration, 8-oxoG at top position 29, letters put together from the description).
“CTGTGTTTTCACTTTTCCTACATCAGCTTGGACTGCCCTTCTGTCATGGATAA / TTATCACTGACAGAAGGTCAGTCCCAGCTGATGTAGGAAAAGTGAAAACACAG [Pr4]”: no binding ([4]; p50-p50).
“CTGTGTTTTCACTTTTCCTACATCAGCTTGGACTGCCCTTCTGTCATGGATAA / TTATCCCTGACAGAAGGGCAGTCCCAGCTGATGTAGGAAAAGTGAAAACACAG [Pr3]”: binds ([4]; p50-p50, 8-oxoG at bottom position 18 from 5' end).
“CTGTGTTTTCACTTTTCCTACATCAGCTGGGACTGCCCTTCTGTCAGGGATAA (double strand) [Pr0]”: binds ([2]; p50-p65 heterodimer); no binding ([3]; NE of RSV-infected hSAECs, Wt probe); binds ([4]; RelA-depleted NE, p50-p50). “CTGTGTTTTCACTTTTCCTACATCAGCTGGGACTGCCCTTCTGTCAGGGATAA (double strand) [Pr0]”: binds ([5]; NE of RSV-infected OGG1 KO hSAECs, rOGG1 had no effect).
“CTGTGTTTTCACTTTTCCTACATCAGCTGGGACTGCCCTTCTGTCAGGGATAA (double strand) [Pr1a]”: binds ([5]; similar to Pr0, 8-oxoG in bottom strand, within IRE (printed position 10 from its 3' end; opposite top C10), letters put together from the description).
